According to publication PMC12201654:
Construct, isoform or probe ends are uncertain for at least one entry. For part of these data: At least one result comes from cells or an extract, where the contact may be indirect. For part of these data: At least one verdict was read from the data and is not stated in words by the source. For part of these data: Where a protein sequence is shown, tags need not be part of it.

What was measured:
Assay in all cases: pull-down
[1] = system: PCV2d Rep (FLAG) (Porcine circovirus 2d); details: Pull-down: IP lysis buffer 4 h at 4 C (lysates) or NP-40 buffer 6 h at 4 C (recombinant), biotin-HSV60 40 ug/mL; phase separation 50-300 mM NaCl; protein in a lysate after overexpression; protein details: N-terminal FLAG; label: 5'-biotin
[2] = system: PCV2d Rep G177-179A (Porcine circovirus 2d); details: Pull-down: IP lysis buffer 4 h at 4 C (lysates) or NP-40 buffer 6 h at 4 C (recombinant), biotin-HSV60 40 ug/mL; phase separation 50-300 mM NaCl; protein in a lysate after overexpression; protein details: N-terminal FLAG; label: 5'-biotin
[3] = system: SUMO-PCV2d Rep (Porcine circovirus 2d); details: Pull-down: IP lysis buffer 4 h at 4 C (lysates) or NP-40 buffer 6 h at 4 C (recombinant), biotin-HSV60 40 ug/mL; phase separation 50-300 mM NaCl; recombinant protein; protein details: His6-SUMO, C-terminal Myc; label: 5'-biotin
[4] = biological target: T1, PCV4 Rep (FLAG) (Porcine circovirus 4) (UniProt A0A7M4CFI7); details: Pull-down: IP lysis buffer 4 h at 4 C (lysates) or NP-40 buffer 6 h at 4 C (recombinant), biotin-HSV60 40 ug/mL; phase separation 50-300 mM NaCl; protein in a lysate after overexpression; protein details: N-terminal FLAG; label: 5'-biotin
T1 sequence (looked up, limits assumed): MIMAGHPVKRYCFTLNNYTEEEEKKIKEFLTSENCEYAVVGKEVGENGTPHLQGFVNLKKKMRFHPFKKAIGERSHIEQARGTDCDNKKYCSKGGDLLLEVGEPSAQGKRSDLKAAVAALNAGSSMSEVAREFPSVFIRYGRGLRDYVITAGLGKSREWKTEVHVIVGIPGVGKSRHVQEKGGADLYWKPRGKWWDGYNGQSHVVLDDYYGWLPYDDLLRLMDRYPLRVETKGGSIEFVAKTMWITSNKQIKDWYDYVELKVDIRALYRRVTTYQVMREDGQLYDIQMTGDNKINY

[5] = biological target: PCV2a Rep (FLAG) (Porcine circovirus 2a) (UniProt Q77Q74); details: Pull-down: IP lysis buffer 4 h at 4 C (lysates) or NP-40 buffer 6 h at 4 C (recombinant), biotin-HSV60 40 ug/mL; phase separation 50-300 mM NaCl; protein in a lysate after overexpression; protein details: N-terminal FLAG; label: 5'-biotin
[6] = biological target: T2, pcGAS (HA) (pig (porcine)) (UniProt I3LM39); details: reduced by competing PCV2d, PCV2a or PCV4 Rep; Pull-down: IP lysis buffer 4 h at 4 C (lysates) or NP-40 buffer 6 h at 4 C (recombinant), biotin-HSV60 40 ug/mL; phase separation 50-300 mM NaCl; protein in a lysate after overexpression; protein details: HA; label: 5'-biotin
T2 sequence (looked up, limits assumed): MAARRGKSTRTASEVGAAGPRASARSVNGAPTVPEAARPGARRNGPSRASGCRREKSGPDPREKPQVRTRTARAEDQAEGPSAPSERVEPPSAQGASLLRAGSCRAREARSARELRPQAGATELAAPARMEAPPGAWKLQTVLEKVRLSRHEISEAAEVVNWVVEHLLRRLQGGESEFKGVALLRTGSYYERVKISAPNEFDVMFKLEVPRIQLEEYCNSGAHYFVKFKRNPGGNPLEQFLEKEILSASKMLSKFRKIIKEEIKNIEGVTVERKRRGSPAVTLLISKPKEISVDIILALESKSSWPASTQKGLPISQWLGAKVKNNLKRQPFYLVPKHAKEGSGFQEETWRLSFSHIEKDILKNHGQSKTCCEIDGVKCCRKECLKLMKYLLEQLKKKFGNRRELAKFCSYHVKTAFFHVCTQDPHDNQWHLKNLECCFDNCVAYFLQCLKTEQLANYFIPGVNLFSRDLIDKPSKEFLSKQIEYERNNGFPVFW

Measured: binding result

TAAGACACGATGCGATAAAATCTGTTTGTAAAATTTATTAAGGGTACAAATTGCCCTAGC (double strand) [biotin-HSV60]
binds: [1] | [2] | [3] | [4] | [5] | [6]
